Values from PubChem BioAssay AID1259414 (Drosophila RNAi Screening Center, 2018)

Purpose: 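Genome-wide screen for host control of endosymbiont load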 (primary screen)
System: Drosophila JW18 cells infected with Wolbachia
Knock-down reagent: long dsRNA against Drosophila genes, 0.25 µg dsRNA per well of a 384-well plate
Timing: 5 days
Conditions: cells persistently infected with Wolbachia before knock-down; no added drug
Measured: 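Automated imaging of bacterial rRNA staining divided by host cell count, reported as plate-normalised robust z-score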
Direction: Wolbachia per cell robust z: higher = more Wolbachia per host cell than the plate typical
Call rule: 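Hit when robust z is 1.5 or more, or -1.5 or less, in at least two of three replicates; excludes dsRNAs with several or no targets, genes not expressed in JW18 and well A1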
The deposit covers about 24,000 reagents; shown is an unselected part of those that have a named target and a result. In the full data, about 1,210 (5%) are marked active. 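Inactive calls also include excluded dsRNAs with several or no targets, genes unexpressed in JW18, and well A1, regardless of score.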 A number with no mark means an inactive call. Reagents against one gene are numbered here. A plus sign joins genes that one reagent is predicted to hit.

CG5327: Wolbachia per cell robust z, rep 1 = -0.527; Wolbachia per cell robust z, rep 2 = -2.97; Wolbachia per cell robust z, rep 3 = -2.83
Tsp66E: Wolbachia per cell robust z, rep 1 = -3.44 (active); Wolbachia per cell robust z, rep 2 = -1.3; Wolbachia per cell robust z, rep 3 = -4.15
CG9330 #1: Wolbachia per cell robust z, rep 1 = -0.207; Wolbachia per cell robust z, rep 2 = 0.00875; Wolbachia per cell robust z, rep 3 = -0.751
CG9330 #2: Wolbachia per cell robust z, rep 1 = 0.975; Wolbachia per cell robust z, rep 2 = 0.167; Wolbachia per cell robust z, rep 3 = -0.373
Fkbp14: Wolbachia per cell robust z, rep 1 = 0.359; Wolbachia per cell robust z, rep 2 = 0.0762; Wolbachia per cell robust z, rep 3 = -0.988

Single entries from the list:
Value for CG9330 #1 under “Wolbachia per cell robust z, rep 1”: -0.207
For “Wolbachia per cell robust z, rep 2”, Tsp66E reads -1.3 (active)

Next results follow:
CG42245 + MEP-1 #1: Wolbachia per cell robust z, rep 1 = 0.203; Wolbachia per cell robust z, rep 2 = -0.327; Wolbachia per cell robust z, rep 3 = 0.885
CG42245 + MEP-1 #2: Wolbachia per cell robust z, rep 1 = 0.729; Wolbachia per cell robust z, rep 2 = -0.781; Wolbachia per cell robust z, rep 3 = 1.7
CG42245 + MEP-1 #3: Wolbachia per cell robust z, rep 1 = 0.539; Wolbachia per cell robust z, rep 2 = 1.64; Wolbachia per cell robust z, rep 3 = 2.35
CG7714 #1: Wolbachia per cell robust z, rep 1 = -0.441; Wolbachia per cell robust z, rep 2 = 0.3; Wolbachia per cell robust z, rep 3 = -1.05
CG7714 #2: Wolbachia per cell robust z, rep 1 = 0.878; Wolbachia per cell robust z, rep 2 = 0.0129; Wolbachia per cell robust z, rep 3 = 0.334
CheA46a: Wolbachia per cell robust z, rep 1 = -0.534; Wolbachia per cell robust z, rep 2 = 0.771; Wolbachia per cell robust z, rep 3 = -0.0393
cl: Wolbachia per cell robust z, rep 1 = 0.302; Wolbachia per cell robust z, rep 2 = -0.463; Wolbachia per cell robust z, rep 3 = 0.128
